Results of unrelated studies side by side (data: NIAID ChemDB).

Common to all: tests in culture; species: Mycobacterium tuberculosis

An empty or dashed field is not shown. ECn is the concentration giving n% inhibition of infection, replication or growth. MIC bound comes from a single tested concentration. Rows are shuffled and stem from different studies. A number after MIC or MFC names an inhibition level or a share of isolates. Inhibition is in % at the dose shown (toxicity tests: loss of growth or viability).

compound,cell line,tested at,strain,method,measure,value
NC1CCN(c2c(F)cc3c(=O)c(C(=O)O)cn(C4CC4)c3c2Cl)C1,-,-,ATCC 35827,-,MBC,0.125 µg/mL
Clc1ccc(-n2ncc(C(c3ccccc3)n3ccnc3)c2-c2ccccc2)c(Cl)c1,-,-,ATCC 27294,-,MIC90,29.3 µM
O=S1(=O)OC(c2ccc(O)c(Cl)c2)(c2ccc(O)c(Cl)c2)c2ccccc21,-,-,H37Rv,BACTEC,MIC bound,>12.5 µg/mL
Fc1ccc(-n2ncc(C(c3ccccc3)n3ccnc3)c2-c2ccccc2)cc1,-,-,ATCC 35828 (pyrazinamide-resistant),-,MIC90,≥100 µM
O=C1c2cc(F)ccc2-n2c1nc1cc(F)ccc1c2=O,-,-,MDR 10038,-,MIC,<0.5 µg/mL
CC1CCCCN1.CC1CCCCN1C(=S)S,-,-,KM-R,-,MIC,1.6 µg/mL
CC1CN(c2cc3c(cc2F)C(=O)c2nc4ccccc4c(=O)n2-3)CCN1C(=O)OC(C)(C)C,-,-,H37Rv,-,MIC,>5 µg/mL
CCOC(=O)C(=O)C1CC(c2ccccc2)=NNC1=O,-,6.25 µg/mL,H37Rv,resazurin,inhibition,-18%
Fc1ccccc1-c1c(C(c2ccccc2)n2ccnc2)cnn1-c1ccccc1,-,-,ATCC 27294,-,MIC90,≥100 µM
C=CCc1ccccc1O,-,-,H37Rv,-,MIC,100 µg/mL
NNC(=O)c1ccncc1,-,-,H37Rv,-,MIC,<0.2 µg/mL
COC(=O)/C(O)=C(\O)C(=O)OC,-,-,H37Rv,-,MIC,>100 µg/mL
CCOc1ccc(N=c2ssc(SC)c2-c2ccccc2)cc1,-,-,H37Rv,BACTEC,MIC,≥12.5 µg/mL
NC(=O)c1ccc(-c2ccccc2)cc1N,-,-,H37Rv,-,MIC,>100 µg/mL
CC(=O)Nn1cnc(C(C#N)C=N)c1N,-,-,H37Rv,BACTEC,MIC bound,>12.5 µg/mL
C[C@]1(COc2ccc(N3CCC(N4CCN(c5ccc(OC(F)(F)F)cc5)CC4)CC3)cc2)Cn2cc([N+](=O)[O-])nc2O1,-,-,H37Rv,-,MIC,0.024 µg/mL
Cn1ncc2cccc([N+](=O)[O-])c21,-,-,H37Rv,-,MIC,>100 µg/mL
O=[N+]([O-])c1ccc(/C=N\O)o1,VERO,-,H37Rv,-,MIC,6.25 µg/mL
NS(=O)(=O)c1cccnc1,-,-,H37Rv,-,MIC,>100 µg/mL
Nc1ccc(C(=O)N/N=C/c2ccc([N+](=O)[O-])cc2)cc1,-,12.5 µg/mL,H37Rv,-,inhibition,23%
CCOC(=O)C(C)C(O)c1ccccc1,-,-,H37Rv,-,MIC,>100 µg/mL
O=c1ccc2nc3ccc(O)cc3oc-2c1,-,128 µg/mL,H37Rv,BACTEC,inhibition,81%
c1ccc2cnccc2c1,-,-,H37Rv,-,MIC,>100 µg/mL
NC(=O)c1cnccn1,-,-,Isolate 97-1174,-,MIC,900 µg/mL
O=c1[nH]c2cn(-c3ccccc3)nc2c(=O)n1O,-,-,H37Rv,resazurin,MIC bound,>6.25 µg/mL
Fc1ccc(-c2c(C(c3ccccc3)n3ccnc3)cnn2-c2ccccc2)cc1,-,-,ATCC 35837 (ethambutol-resistant),-,MIC90,≥100 µM
C[C@]1(COc2ccc(N3CCC(CCOCc4ccc(C(F)(F)F)cc4)CC3)cc2)Cn2cc([N+](=O)[O-])nc2O1,-,-,H37Rv,-,MIC,0.024 µg/mL
NC[C@@H]1O[C@H](O[C@H]2[C@@H](O)[C@H](O[C@@H]3[C@@H](O)[C@H](N)C[C@H](N)[C@H]3O[C@H]3O[C@H](CO)[C@@H](O)[C@H](O)[C@H]3N)O[C@@H]2CO)[C@H](N)[C@@H](O)[C@@H]1O,-,-,H37Rv,-,Mean MIC,2.25 µg/mL
Fc1cccc(NC(=S)SCc2ccco2)c1,-,-,H37Rv,BACTEC,MIC,128 µg/mL
C=C(CC1CCN(c2ccc(OC[C@@]3(C)Cn4cc([N+](=O)[O-])nc4O3)cc2)CC1)c1ccc(C(F)(F)F)cc1,-,-,H37Rv,-,MIC,0.012 µg/mL
c1ccc(-c2c(C(c3ccccc3)n3ccnc3)cnn2-c2ccccc2)cc1,-,-,ATCC 35820 (streptomycin-resistant),-,MIC50,43.5 µM
COC(=O)C(=O)c1c(-c2cccnc2)[nH]c2ccccc12,-,6.25 µg/mL,H37Rv,BACTEC,inhibition,0%
Cc1ccc(N(C)S(=O)(=O)c2ccc(N)c(Cl)c2)cc1,-,-,H37Rv,-,MIC,25 µg/mL
O=C(O)C1C2C=CC(C2)C1c1c2ccc(=O)c(O)c-2oc2c(O)c(O)ccc12,-,-,H37Rv,BACTEC,MIC bound,>12.5 µg/mL
C[C@@H]1CN(c2c(F)c(N)c3c(=O)c(C(=O)O)cn(C4CC4)c3c2F)C[C@H](C)N1,-,-,DRUG-SUS,-,MBC90,0.125 µg/mL
CN[C@@H]1[C@H](O[C@H]2[C@H](O[C@H]3[C@H](O)[C@@H](O)[C@H](N=C(N)N)[C@@H](O)[C@@H]3N=C(N)N)O[C@@H](C)[C@]2(O)C=O)O[C@@H](CO)[C@H](O)[C@H]1O,-,-,Clinical isolate 8,-,MIC,3 µg/mL
Nc1ccc(C(=O)O)c(O)c1,-,-,H37Rv,-,Median MIC,0.75 µg/mL
COc1cc2nc3n(c(=O)c2cc1OC)-c1ccccc1C3=O,-,-,H37Rv,-,MIC,>10 µg/mL
Cc1cccc(OC(C)C(=O)Nc2cccc(N)c2)c1,-,-,H37Rv,-,MIC,100 µg/mL
Nc1ccc(C(=O)O)c(O)c1,-,-,Clinical isolate 2,-,MIC,>100 µg/mL
O=C(O)/C=C1\OC(=O)c2ccccc21,-,-,H37Rv,-,MIC,>100 µg/mL
O=C1C2=C(c3ccccc31)C(c1cccc(Cl)c1)NC(=S)N2,-,-,H37Rv,BACTEC,MIC bound,>12.5 µg/mL
Fc1ccccc1-c1c(C(c2ccccc2)n2ccnc2)cnn1-c1ccccc1F,-,-,ATCC 35820 (streptomycin-resistant),-,MIC50,≥100 µM
Brc1ccc(OCc2ccccc2)cc1,-,-,H37Rv,-,MIC,>100 µg/mL
Fc1ccccc1-n1ncc(C(c2ccccc2)n2ccnc2)c1-c1ccccc1,-,-,ATCC 35837 (ethambutol-resistant),-,MIC90,≥100 µM
CC1COc2c(N3CCN(C)CC3)c(F)cc3c(=O)c(C(=O)O)cn1c23,-,-,SMI 10,BACTEC,MIC,16 µg/mL
NNC(=O)c1ccncc1,-,-,Clinical isolate 7,-,MIC,2 µg/mL
O=C1c2cccc(F)c2-n2c1nc1ccccc1c2=O,-,-,H37Rv,-,MIC,1 µg/mL
Cc1ccc(Nc2ccc(N)c3c2C(=O)c2ccccc2C3=O)cc1,-,-,H37Rv,-,MIC,100 µg/mL
CC1COc2c(N3CCN(C)CC3)c(F)cc3c(=O)c(C(=O)O)cn1c23,-,-,ATCC 27294,-,MIC90,3 µM
CSc1ccc2nc(N)sc2c1,-,-,H37Rv,-,MIC,>100 µg/mL
COc1nc(OC)n(C)c(=O)c1OP(=O)(OC)OC,-,-,H37Rv,resazurin,MIC bound,>6.25 µg/mL
O=[N+]([O-])[O][Ga]([O][N+](=O)[O-])[O][N+](=O)[O-],-,500 µM,Erdman,-,inhibition,65%
C[C@]1(COc2ccc(N3CCC(Nc4ccc(Cl)cc4OC(F)(F)F)CC3)cc2)Cn2cc([N+](=O)[O-])nc2O1,-,-,H37Rv,-,MIC,0.024 µg/mL
O=C1c2cc(Cl)ccc2-n2c1nc1ccccc1c2=O,-,-,H37Rv,-,MIC,<0.2 µg/mL
CC(O)CNC1CCCCC1,-,-,H37Rv,-,MIC,>100 µg/mL
NC[C@H]1O[C@H](O[C@H]2[C@H](O)[C@@H](O[C@H]3O[C@H](CO)[C@@H](O)[C@H](N)[C@H]3O)[C@H](N)C[C@@H]2N)[C@H](O)[C@@H](O)[C@@H]1O,-,-,Isolate 2,-,MIC,32 µg/mL
Nc1ccc(C(=O)N/N=C/c2ccc(O)cc2)cc1,-,12.5 µg/mL,H37Rv,-,inhibition,21%
CCC1CN2CCc3cc(OC)c(OC)cc3C2C(C2(O)C(=O)Nc3ccccc32)C1=O,-,12.5 µg/mL,H37Rv,BACTEC,inhibition,0%
Cc1cc(C)c(C#CC(=O)O)c(C)c1,-,-,H37Rv,-,MIC,>100 µg/mL
CC1COc2c(N3CCN(C)CC3)c(F)cc3c(=O)c(C(=O)O)cn1c23,-,-,H37Ra,-,Median MIC,0.75 µg/mL
O=C(O)c1cc([N+](=O)[O-])ccc1Cl,-,-,H37Rv,-,MIC,>100 µg/mL
NNC(=O)CNC(=O)C(Cc1c[nH]c2ccccc12)NC(=O)OCc1ccccc1,-,12.5 µg/mL,H37Rv,BACTEC,inhibition,5%
O=C(CC(Br)C(=O)c1ccccc1)c1ccccc1,-,-,H37Rv,-,MIC,100 µg/mL
C[C@H]1COc2c(N3CCN(C)CC3)c(F)cc3c(=O)c(C(=O)O)cn1c23,-,-,6R,-,MIC,0.5 µg/mL
CN1CCN(c2cccc3c2C(=O)c2nc4ccccc4c(=O)n2-3)CC1,-,-,H37Rv,-,MIC,>5 µg/mL
Nc1ccc(Sc2ccccc2)cc1,-,-,H37Rv,-,MIC,12.5 µg/mL
C[C@H]1COc2c(N3CCN(C)CC3)c(F)cc3c(=O)c(C(=O)O)cn1c23,-,-,Isolate 4,-,MIC,2 µg/mL
CC1=N/C(=C/c2ccc(-c3ccccc3)cc2)C(=O)O1,-,12.5 µg/mL,H37Rv,BACTEC,inhibition,18%
CC(=O)O[C@H]1C[C@@]2(C)[C@@H](C[C@@H](O)[C@H]3[C@@]4(C)CC[C@@H](O)[C@@H](C)[C@@H]4CC[C@@]32C)/C1=C(\CCC=C(C)C)C(=O)O,-,-,H37Rv,-,Mean MIC,8 µg/mL
CN1CCN(c2ccc3c(c2)-n2c(nc4ccccc4c2=O)C3=O)CC1,-,-,H37Rv,-,MIC,5 µg/mL
CC[C@H]1OC(=O)[C@H](C)[C@@H](O[C@H]2C[C@@](C)(OC)[C@@H](O)[C@H](C)O2)[C@H](C)[C@@H](O[C@@H]2O[C@H](C)C[C@H](N(C)C)[C@H]2O)[C@](C)(O)C[C@@H](C)CN(C)[C@H](C)[C@@H](O)[C@]1(C)O,-,-,H37Rv,-,MBC,>8 µg/mL
COc1ccc(/C=N/NC(=O)CNC(=O)n2ccnc2)cc1,-,12.5 µg/mL,H37Rv,BACTEC,inhibition,-7%
CC1COc2c(N3CCN(C)CC3)c(F)cc3c(=O)c(C(=O)O)cn1c23,-,-,ATCC 35830,-,MIC,0.25 µg/mL
Cc1cc(C)c2nc3n(c(=O)c2c1)-c1ccc(F)cc1C3=O,-,-,H37Rv,-,MIC,<0.3 µg/mL
Nc1ccn([C@H]2C[C@H](N)[C@@H](CO)O2)c(=O)n1,-,12.5 µg/mL,H37Rv,BACTEC,inhibition,-19%
O=C(O)c1cc2ccccc2cc1O,-,-,H37Rv,-,MIC,100 µg/mL
CN[C@@H]1[C@H](O[C@H]2[C@H](O[C@H]3[C@H](O)[C@@H](O)[C@H](N=C(N)N)[C@@H](O)[C@@H]3N=C(N)N)O[C@@H](C)[C@]2(O)C=O)O[C@@H](CO)[C@H](O)[C@H]1O,-,-,Isolate 9,-,MIC,8 µg/mL
NNC(=O)c1ccncc1,-,-,ATCC 35820 (streptomycin-resistant),-,MIC50,0.07 µM
NCC[C@H](O)C(=O)N[C@@H]1C[C@H](N)[C@@H](O[C@H]2O[C@H](CN)[C@@H](O)[C@H](O)[C@H]2O)[C@H](O)[C@H]1O[C@H]1O[C@H](CO)[C@@H](O)[C@H](N)[C@H]1O,-,-,9R,-,MIC,2.5 µg/mL
O=C1OC(c2ccccc2)=N/C1=C\c1ccc2c(c1)OCO2,-,-,H37Rv,BACTEC,MIC bound,>12.5 µg/mL
O=C(O)CNCC(=O)O,-,-,H37Rv,-,MIC,>100 µg/mL
CC(=O)/C(N=Nc1ccc(C(=O)N/N=C/c2ccc(O)cc2)cc1)=C(\C)O,-,-,H37Rv,-,MIC,>12.5 µg/mL
Nc1c(C(=O)O)c2nc3c(CO)cccc3oc-2cc1=O,-,12.8 µg/mL,H37Rv,BACTEC,inhibition,12%
Nc1ccc(C(=O)N/N=C/c2ccc(F)cc2)cc1,-,-,H37Rv,-,EC50,>12.5 µg/mL
CC[C@H]1OC(=O)[C@H](C)[C@@H](O[C@H]2C[C@@](C)(OC)[C@@H](O)[C@H](C)O2)[C@H](C)[C@@H](O[C@@H]2O[C@H](C)C[C@H](N(C)C)[C@H]2O)[C@](C)(OC)C[C@@H](C)C(=O)[C@H](C)[C@@H](O)[C@]1(C)O,-,-,41494,-,MIC,>4 µg/mL

For reference, 5 entries again:

CC1CCCCN1.CC1CCCCN1C(=S)S ; strain: KM-R ; measure: MIC ; value: 1.6 µg/mL
O=C(O)CNCC(=O)O ; strain: H37Rv ; measure: MIC ; value: >100 µg/mL
Cc1cc(C)c(C#CC(=O)O)c(C)c1 ; strain: H37Rv ; measure: MIC ; value: >100 µg/mL
c1ccc(-c2c(C(c3ccccc3)n3ccnc3)cnn2-c2ccccc2)cc1 ; strain: ATCC 35820 (streptomycin-resistant) ; measure: MIC50 ; value: 43.5 µM
Clc1ccc(-n2ncc(C(c3ccccc3)n3ccnc3)c2-c2ccccc2)c(Cl)c1 ; strain: ATCC 27294 ; measure: MIC90 ; value: 29.3 µM